Assay results taken from patent US12006530B2, “Streptococcal proteases” (priority 2016, dated 2024).

B1: IgdEporcinus: IgdE isolated from S. porcinus strain DSM20725, SEQ ID NO: 5 (protein, listed as Streptococcus porcinus)
chain: AVLARENSNSGQLHPEARQIKAVDFQEFSKKLKEEISENQQFHVFKLGMNNYYRSGIRINELNNLATEHDFILVNDHASHKKYDVPHIFIMNKGDVIVPSKEKYDEQMREVKFAGDQPNAQRQRIHALFEIGLDSNKRQLLNAAGLGTAENTLAKVDGFTIYSHGLTVDNKYYEDYIRFNKNENINITKERFTANDNLIHNLITESTAKVQTNDRDKVKAFVMYVANHTIYDWIAANNAVSNISDVNYYLGSDLFSITERKKAMCVGFSTTAARAFNMLGIPAYVVVGKNAQGVDHATARAYYNGKWHTIDGTGFINDKASRSTIYSENHFYSIGEDSYNIVDVNDEQIAFDKNYMKIDKVFEEWAQKQPTADLLLINKDKSLVPSNYVAYVAPVIVDNNRKGSLTQIYQNLKQVMESSSQKASLTSLLNTATADIAKLQTSSQLTQEDYNQIQNSMKSVLSFFWQLDKDSATNFENSEDYKKYLTETKNAGN
B2: IgdEpseudoporcinus: IgdE isolated from S. pseudoporcinus strain ATCC BAA-1381, SEQ ID NO: 9 (protein, listed as Streptococcus pseudoporcinus)
chain: RENENVRQLQSENKQMKAVNLQEFSEKLKGEIAENQQFHIFKLGLNNYYIGGVRINELSDLAKNHDFIMIDNRATHNKYGVPHIIIMNKDDVIVHNQEDYNKEMAELTFAGDKPIQSDSYLPQKKRIHALFEIGLDSNRRQLLNAAGLKTPENSVIELDTFKIYSHGLAVDNKYYDEYSHFNNNTNVNITKQRFTENDNLIHNLITTSTAKDQPTDRDKVKTFVMYVANHTIYDWNAANNAVSNISDVNYYLGSDLFSITERKKAMCVGFSTTAARAFNMLGIPAYVVEGKNAQGVDHATARVYYNGKWHTIDGTGFINGNRTRSTLYTESHFRSVGEDSYQLVGLNEDIPFDRNYMKIDKVYEEWAPKQKTADLLLVNKDKSLVGLDRVAYVEPVYVDKNRQDALTQIYKKLKETMESSSKKNPSSGGFSSLLGSASSDIAKLEGSSQLTQEEYDKIHRSMTSILTFFAQLDKDAAEAFEKGNDYKNYLATTKHAQ

System: porcine IgG
Experiment: N-terminal Edman sequencing of the 32 kDa IgG degradation product
Format: biochemical, pig

| Molecule | N-terminal sequence of the 32 kDa degradation product of porcine IgG (cleavage site) |
| --- | --- |
| B1 | CPICPACE |
| B2 | CPICPACE |
